Holding throughout (type): cell-based, Dengue virus
Data set [1] deals with DENV-3 strain H87. In words: Tetravalent RT-qPCR assay, serotype 3. As to conditions: RT-qPCR serotype 3 H87; selectivity index. The protocol: (§1) The antiviral activity of the compounds of the invention was tested against DENV-1 strain TC974#666 (NCPV), DENV-2 strain 16681, DENV-3 strain H87 (NCPV) and DENV-4 strain H241 (NCPV) in a RT-qPCR assay. Therefore, Vero cells were infected with either DENV-1, or -2, or -3, or -4 in the presence or absence of test compounds. At day 3 post-infection, the cells were lysed and cell lysates were used to prepare cDNA of both a viral target (the 3′UTR of DENV; Table 2) and a cellular reference gene (β-actin, Table 2). Subsequently, a duplex real time PCR was performed on a Lightcycler480 instrument. The generated Cp value is inversely proportional to the amount of RNA expression of these targets. Inhibition of DENV replication by a test compound results in a shift of Cp's for the 3′UTR gene. On the other hand, if a test compound is toxic to the cells, a similar effect on β-actin expression will be observed. The comparative ΔΔCp method is used to calculate ECs50, which is based on the relative gene expression of the target gene (3′UTR) normalized with the cellular housekeeping gene (β-actin). In addition, CC50 values are determined based on the Cp values acquired for the housekeeping gene β-actin.
(§2) The culture medium consisted of minimal essential medium supplemented with 2% of heat-inactivated fetal calf serum, 0.04% gentamycin (50 mg/mL) and 2 mM of L-glutamine. Vero cells, obtained from ECACC, were suspended in culture medium and 75 μL/well was added in 96-well plates (10000 cells/well), which already contain the antiviral compounds. […] In addition, each plate contains wells which are assigned as virus controls (containing cells and virus in the absence of compound) and cell controls (containing cells in the absence of virus and compound). Once the cells were added in the plates, the plates were incubated in a fully humidified incubator (37° C., 5% CO2) until the next day. Dengue viruses serotype-1, 2, 3 and 4 were diluted in order to obtain a Cp of ˜22-24 in the assay. Therefore, 25 μL of virus suspension was added to all the wells containing test compound and to the wells assigned as virus control. In parallel, 25 μL of culture medium was added to the cell controls. Next, the plates were incubated for 3 days in a fully humidified incubator (37° C., 5% CO2). After 3 days, the supernatant was removed from the wells and the cells were washed twice with ice-cold PBS (˜100 μL). The cell pellets within the 96-well plates were stored at −80° C. for at least 1 day. Next, RNA was extracted using the Cells-to-CT™ lysis kit, according to the manufacturer's guideline (Life Technologies). The cell lysates can be stored at −80C or immediately used in the reverse transcription step.
(§3) In preparation of the reverse transcription step, mix A (table 3A) was prepared and 7.57 μL/well was dispensed in a 96-well plate. After addition of 5 μL of the cell lysates, a five minute denaturation step at 75° C. was performed (table 3B). Afterwards, 7.43 μL of mix B was added (table 3C) and the reverse transcription step was initiated (table 3D) to generate cDNA.
(§4) Finally, a RT-qPCR mix was prepared, mix C (table 4A), and 22.02 μL/well was dispensed in 96-well LightCycler qPCR plates to which 3 μL of cDNA was added and the qPCR was performed according to the conditions in table 4B on a LightCycler 480.
(§5) Using the LightCycler software and an in-house LIMS system, dose response curves for each compound were calculated and the half maximal effective concentration (EC50) and the half maximal cytotoxic concentration (CC50) were determined (Tables 5-8).
For orientation: In qPCR the cycle at which signal appears reflects the starting amount.

Data set [2] relates to DENV-4 strain H241. In words: Tetravalent RT-qPCR assay, serotype 4. As to conditions: RT-qPCR serotype 4 H241; selectivity index. Here is the method: as §1, §2, §3, §4, §5
The test system of data set [3] is DENV-2 strain 16681. In words: Tetravalent RT-qPCR assay, serotype 2. As to conditions: RT-qPCR serotype 2 16681; selectivity index. The protocol: as §1, §2, §3, §4, §5
Data set [4] has as its system DENV-1 strain TC974#666. Briefly: Tetravalent RT-qPCR assay, serotype 1. The note with it: RT-qPCR serotype 1 TC974#666; selectivity index. The protocol: as §1, §2, §3, §4, §5

The results in this text go back to patent US11407715B2, “Substituted indoline derivatives as dengue viral replication inhibitors” (JANSSEN PHARMACEUTICALS, INC., priority 2017, dated 2022).

The source's definition of the ratio is not given here. Bounds are passed on as bounds.

Consider `COc1cc(NC(C(=O)N2CCc3ccc(OC(F)(F)F)cc32)c2ccc(Cl)cc2)cc(OCCC(C)C(=O)O)c1` (single isomer, unassigned) [Compound 1C], for which the SI in data set [1] was >1300; in data set [2], 427; in data set [3], >15300; in data set [4] it was >11000.
The matching figures for `COc1cc(NC(C(=O)N2CCc3ccc(OC(F)(F)F)cc32)c2ccc(Cl)cc2)cc(OCCC(C)C(=O)O)c1` (single isomer, unassigned) [Compound 1D]: >949, 280, >9200 and >11400.
As for `COc1cc(NC(C(=O)N2CCc3ccc(OC(F)(F)F)cc32)c2ccc(Cl)cc2)cc(OCCC(C)(C)C(=O)O)c1` (single isomer, unassigned) [Compound 2A], the SI in data set [1] is >390; in data set [2], 125; in data set [3], >6500; in data set [4] it was >7920.
With `COc1cc(NC(C(=O)N2CCc3ccc(OC(F)(F)F)cc32)c2ccc(Cl)cc2)cc(OCC(C)CC(=O)O)c1` (single isomer, unassigned) [Compound 4C], the SI in data set [1] is >1660; in data set [2], >73; in data set [3], >51900; in data set [4] it was >61000.
With `COc1cc(NC(C(=O)N2CCc3ccc(OC(F)(F)F)cc32)c2ccc(Cl)cc2)cc(OCC(C)CC(=O)O)c1` (single isomer, unassigned) [Compound 4D], the SI in data set [1] is >727; in data set [2] it was 73; in data set [3] it was >15600; in data set [4], >7140.
As to `COc1cc(NC(C(=O)N2CCc3ccc(OC(F)(F)F)cc32)c2ccc(Cl)cc2)cc(OCC2(CC(=O)O)CC2)c1` (single isomer, unassigned) [Compound 5A], the SI in data set [1] is recorded as >170; in data set [2], 206; in data set [3], >3220; in data set [4] it was >1930.
The matching figures for `COc1cc(NC(C(=O)N2CCc3ccc(OC(F)(F)F)cc32)c2ccc(Cl)cc2)cc(OC23CC(C(=O)O)(C2)C3)c1` (single isomer, unassigned) [Compound 9B]: >203, 372, >2680 and >2080.
On the same counts, the results for `COc1cc(NC(C(=O)N2CCc3ccc(OC(F)(F)F)cc32)c2ccc(Cl)cc2)cc(OCCC(=O)O)c1` (single isomer, unassigned) [Compound 12B] are >401, 318, >8920 and >8660.
Take `COc1cc(NC(C(=O)N2CCc3ccc(OC(F)(F)F)cc32)c2ccc(Cl)cc2)cc(OCCCCC(=O)O)c1` (single isomer, unassigned) [Compound 13B]: the SI in data set [1] was >1350; in data set [2], 323; in data set [3], >23900; in data set [4] it was >10400.
On to `COc1cc(CCCCC(=O)O)cc(NC(C(=O)N2CCc3ccc(OC(F)(F)F)cc32)c2ccc(Cl)cc2)c1` (single isomer, unassigned) [Compound 14A], for which the SI in data set [1] is given as >584; in data set [2], 510; in data set [3], >5890; in data set [4], >6140.
As to `COc1cc(CCCC(=O)O)cc(NC(C(=O)N2CCc3ccc(OC(F)(F)F)cc32)c2ccc(Cl)cc2)c1` (single isomer, unassigned) [Compound 15B], the SI in data set [1] is recorded as >525; in data set [2], 456; in data set [3], >4310; in data set [4] it was >6280.
For `COc1cc(NC(C(=O)N2CCc3ccc(OC(F)(F)F)cc32)c2ccc(Cl)cc2OC)cc(OCCC(C)C(=O)O)c1` (single isomer, unassigned) [Compound 17C], the SI is >401 in data set [1], 95 in data set [2], >13700 in data set [3] and >8230 in data set [4].
The matching figures for `COc1cc(NC(C(=O)N2CCc3ccc(OC(F)(F)F)cc32)c2ccc(Cl)cc2OC)cc(OCCC(C)C(=O)O)c1` (single isomer, unassigned) [Compound 17D]: >541, 168, >24100 and >15400.
Consider `COc1cc(NC(C(=O)N2CCc3ccc(OC(F)(F)F)cc32)c2ccc(Cl)cc2OC)cc(OCCC(C)(C)C(=O)O)c1` (single isomer, unassigned) [Compound 18B], for which the SI is recorded as >281 in data set [1], 148 in data set [2], >4590 in data set [3] and >2220 in data set [4].
In the case of `COc1cc(NC(C(=O)N2CCc3cc(OC)c(C(F)(F)F)cc32)c2ccc(Cl)cc2)cc(OCCC(C)C(=O)O)c1` (single isomer, unassigned) [Compound 20C], the SI in data set [1] is on record as >249; in data set [2] it was >60; in data set [3], >19200; in data set [4] it was >4540.
Consider `COc1cc(NC(C(=O)N2CCc3cc(OC)c(C(F)(F)F)cc32)c2ccc(Cl)cc2)cc(OCCC(C)C(=O)O)c1` (single isomer, unassigned) [Compound 20D], for which the SI in data set [1] is >178; in data set [2] it was >21; in data set [3], >7660; in data set [4] it was >1820.
On the same counts, the results for `COc1cc(NC(C(=O)N2CCc3cc(OC)c(C(F)(F)F)cc32)c2ccc(Cl)cc2)cc(OCCC(C)(C)C(=O)O)c1` (single isomer, unassigned) [Compound 21B] are >357, 115, >12700 and >1950.
With `COc1cc(NC(C(=O)N2CCc3cc(F)c(OC(F)(F)F)cc32)c2ccc(Cl)cc2)cc(OC2CC(C(=O)O)C2)c1` (single isomer, unassigned) [Compound 27B], the SI is listed as >22600 in data set [1], 9330 in data set [2], >92800 in data set [3] and >114234 in data set [4].
On the same counts, the results for `COc1cc(NC(C(=O)N2CCc3cc(OC)c(Cl)cc32)c2ccc(Cl)cc2)cc(OC2CC(C(=O)O)C2)c1` (single isomer, unassigned) [Compound 32B] are >2870, 295, >35800 and >10300.
The matching figures for `COc1cc(NC2CC(C(=O)O)C2)cc(NC(C(=O)N2CCc3ccc(OC(F)(F)F)cc32)c2ccc(Cl)cc2)c1` (single isomer, unassigned) [Compound 33C]: >185, 9.8, >4630 and >3500.
Turning to `COc1cc(NC2CC(C(=O)O)C2)cc(NC(C(=O)N2CCc3ccc(OC(F)(F)F)cc32)c2ccc(Cl)cc2)c1` (single isomer, unassigned) [Compound 33D], the SI is reported as >732 in data set [1], 256 in data set [2], >6620 in data set [3] and >7130 in data set [4].
With `COc1cc(NC(C(=O)N2CCc3ccc(OC(F)(F)F)cc32)c2ccc(Cl)cc2)cc(OCC2CC2C(=O)O)c1` (stereo not shown) [Compound 6AB], the SI is on record as >15300 in data set [1], >425 in data set [2], >187753 in data set [3] and >133413 in data set [4].
